System: BVDV NADL cp in MDBK cells
Test: Yield reduction assay
Type: cell-based, bovine viral diarrhea virus

In the case of interferon alpha 2b, the “EC50 against BVDV” value is reported as 2.6 IU per ml and the maximal viral reduction (even at 1000 IU per ml) is reported as ≤ 2 logs.

Reference: patent US7582618B2 (priority 2002, dated 2009)
